For orientation: MIC means the least concentration at which growth counts as inhibited.

Values after ≈ are worked out from the molar mass of the structure shown.

Here are results for 3 molecules from ChEMBL document CHEMBL4422700, “Trichothecenes from a Soil-Derived Trichoderma brevicompactum” (J Nat Prod, 2019).

Type in all cases: functional
One experiment has as its system Candida albicans. The experiment is described as follows: Antifungal activity against Candida albicans NCPF3153 by colorimetric broth microdilution method. In general terms: Dilution methods test growth across graded concentrations, often in twofold steps.
The next experiment deals with Cryptococcus neoformans. The experiment is described as follows: Antifungal activity against flucytosine-resistant, Cryptococcus neoformans ATCC 90113 by colorimetric broth microdilution method.
For a further experiment, the system named is Nannizzia gypsea. The experiment is described as follows: Antifungal activity against Microsporum gypseum by colorimetric broth microdilution method.

Regarding `CC1=C[C@H]2O[C@@H]3C[C@@H](O)[C@](C)([C@@]2(C)CC1)[C@]31CO1` [TRICHODERMOL], the MIC in the experiment with Candida albicans and against Cryptococcus neoformans was 16 µg/mL (≈ 63.9 µM) in each case.
`CC(=O)O[C@@H]1C[C@H]2O[C@@H]3C=C(CO)CC[C@]3(C)[C@]1(C)[C@]21CO1`: the minimal inhibitory concentration (MIC) in the experiment on Candida albicans and in the experiment on Cryptococcus neoformans was 64 µg/mL (≈ 208 µM) throughout.
Consider `CC(=O)O[C@@H]1C[C@H]2O[C@@H]3C=C(C)CC[C@]3(C)[C@]1(C)[C@]21CO1`, for which the MIC came out at 1 µg/mL (≈ 3.42 µM) in the experiment on Candida albicans, 4 µg/mL (≈ 13.7 µM) in the experiment on Cryptococcus neoformans and 2 µg/mL (≈ 6.84 µM) with Nannizzia gypsea.
